Screening data, single-dose tests

The values are deposited in ChEMBL (CHEMBL3988442, “University of Dundee, Small-Polar-MMV Screening Library” (2021)).

Mtb cholesterol medium: 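Whole-cell growth test on Mycobacterium tuberculosis, read after 4 days in a medium based on cholesterol and the lipid DPPC; the read-out is not stated. Compounds at 500 µM. Direction is inferred from retests: higher values go with more growth inhibition. About 18,000 compounds were tested under these conditions; 5% (about 900) showed 50% or more at least once.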
Mtb glucose medium: 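Whole-cell growth test on Mycobacterium tuberculosis, read after 3 days in glucose-containing 7H9 medium; the read-out is not stated. Concentration: 500 µM. Direction is inferred from retests: higher values go with more growth inhibition. Size under these conditions: about 18,000 compounds, about 1,400 of them at 50% or above in at least one test.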

The filed quantity is “Percent Effect” (%). The controls that fix the scale are not given in the record; negative values are as filed. Many other results are left out here, so strong results are more common than in the screen.

{"structure": "COc1ccc([S+]([O-])Cc2noc(C)n2)cc1", "stereo": "stereo not given", "Mtb cholesterol medium": 68.2, "Mtb glucose medium": 49.83}
{"structure": "Cc1ccc(S(=O)(=O)NCC(C)N)cc1F", "stereo": "stereo not given", "Mtb glucose medium": 5.588}
{"structure": "COc1cccc2c1CCN(C(=O)c1cnn(C)c1)C2", "Mtb cholesterol medium": 18.97}
{"structure": "Cc1cnn(CCNCc2cccc3c2OCO3)c1", "Mtb glucose medium": 51.87}
{"structure": "Cc1cccc(NCCC[S+](C)[O-])n1", "stereo": "stereo not given", "Mtb cholesterol medium": 0.8088}
{"structure": "CCc1nccn1CCNC(=O)[C@H]1CCC[C@@H](O)C1", "Mtb glucose medium": 8.939}
{"structure": "NC[C@@H]1CCO[C@H]1c1ccccc1", "Mtb glucose medium": 13.6}
{"structure": "CN1CCN(CCOc2ccc(C#N)cc2)CC1", "Mtb cholesterol medium": 2.887, "Mtb glucose medium": 22.01}
{"structure": "OCCN1CCc2ccccc2C1", "Mtb cholesterol medium": 6.469, "Mtb glucose medium": 17.3}
{"structure": "CC(NC(=O)c1ccc(CCNS(C)(=O)=O)s1)C1CC1", "stereo": "stereo not given", "Mtb glucose medium": 27.81}
{"structure": "NC1CCCCNC1=O", "stereo": "stereo not given", "Mtb glucose medium": -6.495}
{"structure": "CCC(Cn1ccnc1)NC(=O)c1cc(CO)ccn1", "stereo": "stereo not given", "Mtb glucose medium": 14.08}
{"structure": "Cc1c[nH]c(CN(C)CC2(CO)CCOCC2)n1", "Mtb cholesterol medium": -8.166}
{"structure": "CC(C)(C)CCC(N)c1ncc[nH]1", "stereo": "stereo not given", "Mtb cholesterol medium": 11.83}
{"structure": "Nc1nccc(-c2cncc(F)c2)n1", "Mtb glucose medium": 20.43}
{"structure": "Cn1cc(Br)cc1C(=O)NCC1CCCO1", "stereo": "stereo not given", "Mtb glucose medium": 62.11}
{"structure": "COc1ccccc1C(=O)N(C)C1CCN(C)CC1", "Mtb glucose medium": 2.234}
{"structure": "CCOCCC(=O)N1CCC2(CC1)C(=O)NCCN2C", "Mtb cholesterol medium": 2.992}
{"structure": "CC(O)CNC1CCS(=O)(=O)CC1", "stereo": "stereo not given", "Mtb glucose medium": -1.338}
{"structure": "CCS(=O)(=O)CC(C)Nc1nccnc1C#N", "stereo": "stereo not given", "Mtb glucose medium": 5.454}
{"structure": "NC(=O)c1cc(N)nc2ccccc12", "Mtb glucose medium": -11.86}
{"structure": "OCc1csc2nccn12", "Mtb glucose medium": 7.888}
{"structure": "CC(C)COCC(O)Cn1nnc(-c2ccco2)n1", "stereo": "stereo not given", "Mtb glucose medium": 51.54}
{"structure": "Cc1ccc(CNc2nnnn2CCO)cc1", "Mtb cholesterol medium": 6.192, "Mtb glucose medium": 21.23}
{"structure": "Cn1c(=O)[nH]c2ccc(F)cc21", "Mtb glucose medium": 13.61}
{"structure": "Cc1noc(C)c1CCC(=O)NCc1ccon1", "Mtb cholesterol medium": 7.139}
{"structure": "N#CCCn1ncc2c(NCc3cccs3)ncnc21", "Mtb glucose medium": 65.03}
{"structure": "Cn1cc(Br)c(CN2C(=O)c3ccccc3C2=O)n1", "Mtb glucose medium": 3.114}
{"structure": "CCC(C(=O)NCc1nnc2n1CCC2)n1cccn1", "stereo": "stereo not given", "Mtb glucose medium": -4.186}
{"structure": "CC(=O)NCCNS(=O)(=O)c1ccc(C)c(Cl)c1", "Mtb cholesterol medium": 21.07, "Mtb glucose medium": 46.26}
{"structure": "Cn1cc(CC(CN)CO)cn1", "stereo": "stereo not given", "Mtb cholesterol medium": -7.234}
{"structure": "NC(=O)C1CCN(CC(=O)NCC(F)(F)F)CC1", "Mtb cholesterol medium": 0.1968}
{"structure": "CCC(C)OCC(=O)N(C)Cc1ccc(O)cc1", "stereo": "stereo not given", "Mtb glucose medium": 32.08}
{"structure": "CCOc1cc(CN2CCC(N)CC2)ccc1O", "Mtb glucose medium": -1.77}
{"structure": "COc1c(CNCCCN(C)S(C)(=O)=O)c(C)nn1C", "Mtb glucose medium": 7.096}
{"structure": "CCn1nc(C)cc1C(=O)NC(C)c1nc(C)c[nH]1", "stereo": "stereo not given", "Mtb glucose medium": 6.612}
{"structure": "CCN(Cc1cc(C)n[nH]1)CC1CCCO1", "stereo": "stereo not given", "Mtb cholesterol medium": 9.33}
{"structure": "Cc1[nH]ncc1CCCNC(=O)N1CCSCC1", "Mtb glucose medium": 12.55}
{"structure": "N#Cc1ccc(OCCCN2CCNC(=O)C2)cc1", "Mtb cholesterol medium": 58.22, "Mtb glucose medium": 57.36}
{"structure": "Cc1noc(CCCC(=O)Nc2cccnc2)n1", "Mtb cholesterol medium": 9.848}
{"structure": "CC(NCC(=O)N1CCNC1=O)c1ccc(Cl)s1", "stereo": "stereo not given", "Mtb glucose medium": 11.74}
{"structure": "OCCC1COc2ccc(F)cc2N1", "stereo": "stereo not given", "Mtb glucose medium": 51.56}

5 of the entries, repeated:

{"structure": "N#CCCn1ncc2c(NCc3cccs3)ncnc21", "Mtb glucose medium": 65.03}
{"structure": "CC(=O)NCCNS(=O)(=O)c1ccc(C)c(Cl)c1", "Mtb cholesterol medium": 21.07, "Mtb glucose medium": 46.26}
{"structure": "NC[C@@H]1CCO[C@H]1c1ccccc1", "Mtb glucose medium": 13.6}
{"structure": "Cc1noc(CCCC(=O)Nc2cccnc2)n1", "Mtb cholesterol medium": 9.848}
{"structure": "Cn1cc(CC(CN)CO)cn1", "stereo": "stereo not given", "Mtb cholesterol medium": -7.234}